Numbering of substitutions follows the chain as printed. Some of the results follow. Env chains of viruses from a treatment-interruption trial, translated from the printed DNA. IC50 / IC80 of two broadly neutralizing antibodies; lower = more sensitive virus; >50 µg/ml means not reached and <0.001 µg/ml is below the lowest dose. No active / inactive call.
B1: HIV-1 Env, rebound clone, antibody arm (protein)
chain: MRVRGMRKNWQDLWRWGIMLLGMLMICNATKNSWVTVYYGVPVWKEASTTLFCASDAKAYDTEVHNVWATHACVPTDPSPQEIKLENVTEEFNMWKNNMVEQMHEDIISLWDQSLKPCVKLTPLCVTLNCTEVVQNNTRQNNTIGEIKNCSFQVSTNLQDKTHKEYALFYKLDIVQLNKSDNISYRLISCNTSDLRQACPKVSFEPIPIHYCAPAGFAILKCNDTRFSGKGTCKNVTTIQCTHGIRPVVSTQLLLNGSLAEEGVVIRSDNISDNTKTIIVQLSKAVKINCTRPNNNTRKGIHIGPGRAFYATGKIIGDIRQAHCDLSGAEWNNTLSQIFEELKKEFKNKTIAFNQSSGGDLEIVLHSFNCGGEFFYCNTSKLFNSTWNSTWNNNSTRNNSEYTITLPCRIRQIINLWQEVGKAMYAPPIEGQIRCSSNITGLLLTRDGGDTNSTTEVFRPGGGNMKDNWRSELYKYKVVKIEPLGVAPTRAKRRMVQREKRAVGIGALFLGFLGAAGSTMGAASMTLTVQARQLLSGIVQQQNNLLRAIEAQQHLLQLTVWGIKQLQARVLAVERYLKDQQLLGIWGCSGKLICTTAVPWNTSWSNKSLDDIWNNMTWMQWEKEIDNYTGLIYSLIEKSQNQQEKNEKDLLELDKWASLWTWFDITNWLWYIRIVIMIVGGLVGLRIVFVVLSVVNRVRKGYSPLSFQTHHPVPGGPDRPAGIGEEGGDKDRDGSTRLVDGFLAIIWVDLRSLFLFSYHRLRDLLLIVTRIVELLGRRGWEALKYWWNLLQYWSQELKKSAVSLYDTIAIAVAEGTDRIIEAIQGTCRAILHIPRRIRQGLERLLL
B2: HIV-1 Env, rebound clone, antibody arm (protein)
chain: B1 chain with E345K, M495V, V675F
B3: HIV-1 Env, rebound clone, antibody arm (protein)
chain: MKVMEIRKHSWRWGILFLGMLMICSAEDLWVTIYYGVPVWKEANTTLFCASDAKAYSTEKHNVWATHACVPTDPNPQEQNLVNVTEDFNMWKNNMVEQMHEDIISLWDQSLKPCVKLTPLCVTLECTDLRNATNTTATNTNNSLRDEGDMKNCSFNITTDRRDKVKKEYATFYNLDIVQIKEESNGNDSKIYRLVSCNTSVITQACPKISFEPIPIHYCAPAGFAILKCNDTDFNGIGTCRNVSIVQCTHGIRPVVSTQLLLNGSLAEKEVVIKSANFTDNTKTIIVQLKDPVEINCTRPNNNTRKGIHMGPGKAFYTVGQVIGDIRKAYCNIRWKKWNNTLGQIAKKLHDQYEMHNITFNRSSGGDPEIVTHSFNCGGEFFYCDTSGLFNSTWINGNWTNGTRIDTEGLNNGTFTLPCRIKQIINTWQEVGKAMYAPPIAGIIKCSTNITGLLLTRDGVNNSGHETFRPGGGDMRDNWRSELYKYKVVKLEPIGLAPTKAKRRVVQREKRAIGGIGALFLGFLGAAGSTMGAASLTLTVQARQLLSGIVQQQNNLLRAVEAQQHLLQLTVWGIKQLQARLLAVERFLHDQQLLGIWGCSGRLICTTAVPWNTSWSNKTLDRIWGNMTWMQWEREIENYTGLIYNLIEESQNQQENNEKELLALDKWANLWNWFDITKWLWYIKIFIMIVGGLIGVRIIFAVLSIVNRVRQGYSPLSFQTRLPTQRGPDRPEGIEEEGGERERDTSGSLATRLLAIIWIDLRSLCLFSYHRLRDLLLIAARIVELLGRRGWEILRYWWSLLQYWTQELKNSAVSLLNTTAVVVAEGTDRIIEAAQRAFRAFLNIPRRIRQGLERALL
B4: HIV-1 Env, rebound clone, antibody arm (protein)
chain: B3 chain with V560I, E742D, D744E
B5: HIV-1 Env, rebound clone, antibody arm (protein)
chain: MRVRGMLRNWQHLEKWGLLFLGLLIICSAKENLWVTVYYGVPVWKEATTTLFCASDAKGYEKEAHNVWATHACVPTDPNPQEIGLENVTENFNMWKNDMVEQMHTDIISLWDESLKPCVKITPLCVTLNCTDYCTTNCSQANDSSILEERKALQNCSFNMTTVVRDKKQKVSALFYRLDLTPLNNNNSSTEYRLITCNTSTITQACPKVSWDPIPIHYCAPAGYAILKCRDKKFNGTGPCKNVSTVQCTHGIKPVVSTQLLLNGSLAEEDIVIRSANISDNTKAIIVSLNESVLINCTRPNNNTRKGIHLGPGQTLYAAGEIVGNIRQAHCSISGTQWNKTLERVRTKLSSLINKTIIFKPPVGGDLEVTMHSFTCRGEFFYCNTSGLFSESGNNSTSSNETIITLPCKIKQIINMWQGVGRAMYAPPIEGTITCNSNITGLLLTRDGGNNGTNDTFRPGGGDMRDNWRSELYKYKVVEIEPLGVAPTRARRQVVRRERRAVGIGAVFLGFLGAAGSTMGAASITLTVQARQLLSGIVQQQSNLLKAIEAQQHLLKLTVWGIKQLQARVLAVERYLKDQQLLGIWGCSGKLICTTNVPWNSSWSNRSYDEIWNNMTWIDWEREVGNYSQEIYRLIEQSQNQQEKNEQELLALDKWASLWNWFDITNWLWYIKIFIMIVGGLIGLRIVFTVLTIVNRVRKGYSPLSLQTLFPSPRGPDRPEGIGEEGGEQDRDRSVRLVNGFLSLVWDDLRSLCLFSYRQLRDFILIAARTVDRGLRRGWEALKYLWNLVKYWSQELKNSAISLFNSTAIVVAEGTDRIIEALQTGIRAVLHIPRRIRQGLERALL
B6: HIV-1 Env, rebound clone, antibody arm (protein)
chain: B5 chain with Q140E

Assays:
[1] = biological target: antibody 10-1074; test: neutralization IC50; higher = virus less sensitive to the antibody
Procedure: (§1)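 Pseudovirus bearing the Env chain mixed with antibody, from 50 µg/ml in fivefold dilutions, on TZM-bl reporter cells, in duplicate.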

[2] = biological target: antibody 3BNC117; test: as above
Procedure: as §1

[3] = biological target: antibody 10-1074; test: neutralization IC80; higher = virus less sensitive to the antibody
Procedure: as §1

[4] = biological target: antibody 3BNC117; test: as above
Procedure: as §1

| Binder | neutralization IC50 [1] | neutralization IC50 [2] | neutralization IC80 [3] | neutralization IC80 [4] |
| --- | --- | --- | --- | --- |
| B1 | > 50 µg/mL | 0.129 µg/mL | > 50 µg/mL | 0.711 µg/mL |
| B2 | > 50 µg/mL | 0.028 µg/mL | > 50 µg/mL | 0.076 µg/mL |
| B3 | > 50 µg/mL | 0.122 µg/mL | > 50 µg/mL | 0.517 µg/mL |
| B4 | > 50 µg/mL | 0.129 µg/mL | > 50 µg/mL | 0.711 µg/mL |
| B5 | > 50 µg/mL | 0.042 µg/mL | > 50 µg/mL | 0.174 µg/mL |
| B6 | > 50 µg/mL | 0.067 µg/mL | > 50 µg/mL | 0.19 µg/mL |

From the supplement of paper PMC12637763
